Experimental data from patent publication US5563176A (priority 1994, dated 1996).

Tests used:
HL-60 cells = test: toxicity of illudin derivatives and other agents in HL-60 cells; type: cell-based, human; conditions: Table 5
MCF-7, breast = test: inhibition of thymidine incorporation after two hour exposure, MCF-7; type: cell-based, human
MDA-231, breast = test: inhibition of thymidine incorporation after two hour exposure, MDA-231; type: cell-based
[1] = tested on: harvested apparently resistant Molt-4 tumors; test: in vitro resistance of harvested Molt-4 tumors; conditions: two apparently resistant Molt-4 tumors
mdr daughter cell lines = test: resistance of mdr daughter cell lines; conditions: lines with 200 to 800 fold resistance to conventional agents
C1498 (AML) = test: colony formation zone size, C1498 (AML); type: cell-based, mouse; conditions: vs CFU-gm; compared with illudin S
HL60 cells (myeloid) = test: inhibition of thymidine incorporation after two hour exposure, HL60; type: cell-based, human; conditions: myeloid leukemia cells
[2] = tested on: MCF7 ADR (GSH-transferase) cells; test: sensitivity of mdr lines, MCF7 ADR; type: cell-based, human; conditions: MCF/Adr vs MCF7-wt

Row | Structure (SMILES) | IC50 (HL-60 cells) | selective toxicity (MCF-7, breast) | selective toxicity (MDA-231, breast) | resistance of harvested tumors in vitro [1] | resistance of mdr daughter cell lines (mdr daughter cell lines) | selectivity towards AML line (C1498 (AML)) | selective toxicity (HL60 cells (myeloid)) | decrease in sensitivity of daughter line [2]
1 | CN(N=O)C(=N)N[N+](=O)[O-] | 15 µM | – | – | – | – | – | – | –
2 | CC1=C2C(=O)C(C)(C)C=C2C(=O)[C@](C)(O)C12CC2 [Dehydroilludin M] | – | selective toxicity | selective toxicity | no evidence of resistance | minimal or no resistance | markedly more selective towards the AML line | selective toxicity | –
3 | CC1=C2C(=C[C@@](C)(CO)C2O)C(=O)[C@](C)(O)C12CC2 (stereo partly shown) [Illudin S] | – | – | – | no evidence of resistance | minimal or no resistance | – | – | 4.2 fold
